Test results published in article PMC9224473 (International Journal of Molecular Sciences, 2022).
Some compounds share one range, which may span the group rather than tell each member.

Tests used:
[1] = system: HepG2 (human liver cancer); assay: MTT cytotoxicity assay; format: cell-based; conditions: HaCaT versus HepG2
Method: (§1) The human cell lines SW480 (primary colon cancer), SW620 (lymph node metastatic colon cancer from the same patient as primary cancer cells), HCT116 (colon carcinoma), HepG2 (liver cancer), and HaCaT (immortalized keratinocytes) were obtained from the American Type Culture Collection (ATCC, Rockville, MD, USA). The SW480, SW620 and HCT116 cells were grown in MEM (ThermoSci, Waltham, MA, USA), HepG2 and HaCaT in DMEM High Glucose (Biowest SAS, Nuaillé, France) supplemented with 10% foetal bovine serum (FBS), HEPES (20 mM), and antibiotics (100 U mL^−1 of Penicillin and 100 μg mL^−1 of Streptomycin). The cells were incubated in a humidified incubator at 37 °C/5% CO2, until 80–90% confluence was reached.
(§2) The cell viability was assessed by using of MTT salt [3-(4,5-dimethylthiazol-2-yl)-2,5-diphenyltetrazolium bromide] converted by mitochondrial dehydrogenase, occurring in living cells. The cells were seeded in 96-well plates at a density of 1 × 10^4 cells per well and allowed to adhere for 24 h at 37 °C in a CO2 humidified incubator. […]. The untreated cells were used as the control.
(§3) After 72 h incubation, the medium was replaced with 200 µL per well of free-serum medium containing 0.5 mg mL^−1 MTT and incubated for 4 h at 37 °C in a CO2 humidified incubator. Subsequently, the medium was removed and dimethyl sulfoxide (DMSO) with isopropanol (1:1) was added to dissolve the formazan crystals. The optical density was measured using UVM 340 reader (ASYS Hitech GmbH, Eugendorf, Austria) at a wavelength of 570 nm. The experiments were repeated three times. The cell viability was calculated as the percent of MTT reduced in treated cells versus control cells (untreated cells). The number of viable cells cultured without tested compounds was assumed as 100%. A decreased relative MTT level indicates decreased cell viability. The IC50 values were estimated using CompuSyn version 1.0.

[2] = system: HCT116 (human colon cancer); assay: MTT cytotoxicity assay; format: cell-based; conditions: HaCaT versus HCT116
Method: as §1, §2, §3

[3] = system: SW480 (human primary colon cancer); assay: MTT cytotoxicity assay; format: cell-based; conditions: HaCaT versus SW480
Method: as §1, §2, §3

[4] = system: SW620 (human metastatic colon cancer); assay: MTT cytotoxicity assay; format: cell-based; conditions: HaCaT versus SW620
Method: as §1
The cell viability was assessed by using of MTT salt [3-(4,5-dimethylthiazol-2-yl)-2,5-diphenyltetrazolium bromide] converted by mitochondrial dehydrogenase, occurring in living cells. […] The untreated cells were used as the control.
as §3, with “Subsequently,” for “After 72 h incubation, the medium was replaced with 200 µL per well of free-serum medium containing 0.5 mg mL^−1 MTT and incubated for 4 h at 37 °C in a CO2 humidified incubator. Subsequently,”

[5] = system: cancer cells (HepG2, HCT-116, SW480, SW620) versus HaCaT; assay: MTT assay, selectivity over the cancer cell panel; format: cell-based, human; conditions: range over HepG2, HCT116, SW480, SW620

With CC(C)[C@@H]1CC[C@@H](C)C[C@H]1OC(=O)CCCCCOC(=O)c1cn(C2CC2)c2cc(N3CCN(CCCCCC(=O)O[C@@H]4C[C@H](C)CC[C@H]4C(C)C)CC3)c(F)cc2c1=O [Compound 8, 6-((1R,2S,5R)-2-isopropyl-5-methylcyclohexyloxy)-6-oxohexyl-1-cyclopropyl-6-fluoro-7-{4-[6-((1R,2S,5R)-2-isopropyl-5-methylcyclohexyloxy)-6-oxohexyl]piperazin-1-yl}-4-oxo-1,4-dihydroquinoline-3-carboxylate] the “SI HepG2 (IC50 for normal cell line/IC50 cancer cell line)” value (“SI HepG2” below) [1] was 1.1, the “SI HCT116 (IC50 for normal cell line/IC50 cancer cell line)” value (“SI HCT116” for short) [2] was 1.1 and the “SI SW480 (IC50 for normal cell line/IC50 cancer cell line)” value (shortened to “SI SW480”) [3] was 0.4. The “SI SW620 (IC50 for normal cell line/IC50 cancer cell line)” value (shortened to “SI SW620”) [4] was 0.7.
Cc1ccc(C(C)C)c(OC(=O)CCCCCOC(=O)c2cn(C3CC3)c3cc(N4CCN(CCCCCC(=O)Oc5cc(C)ccc5C(C)C)CC4)c(F)cc3c2=O)c1 [Compound 16] was tested, and the “SI HepG2” value [1] was 1.5, the “SI HCT116” value [2] was 2.1 and the “SI SW480” value [3] was 2.2. For the same compound, the “SI SW620” value [4] was 1.3 and the “SI range over cancer cell lines” value [5] was 1.9–3.4.
“2-(2-isopropyl-5-methylphenoxy)-2-oxobutyl-1-cyclopropyl-6-fluoro-7-{4-[2-(2-isopropyl-5-methylphenoxy)-2-oxobutyl]piperazin-1-yl}-4-oxo-1,4-dihydroquinoline-3-carboxylate [Compound 15]” was tested, and the “SI HepG2” value [1] was 1.1, the “SI HCT116” value [2] was 1.4 and the “SI SW480” value [3] was 1.6. The “SI SW620” value [4] was 1.1.
For CC(C)[C@@H]1CC[C@@H](C)C[C@H]1OC(=O)CCCCOC(=O)c1cn(C2CC2)c2cc(N3CCN(CCCCC(=O)O[C@@H]4C[C@H](C)CC[C@H]4C(C)C)CC3)c(F)cc2c1=O [Compound 7, 5-((1R,2S,5R)-2-isopropyl-5-methylcyclohexyloxy)-5-oxopentyl-1-cyclopropyl-6-fluoro-7-{4-[5-((1R,2S,5R)-2-isopropyl-5-methylcyclohexyloxy)-5-oxopentyl]piperazin-1-yl}-4-oxo-1,4-dihydroquinoline-3-carboxylate], the “SI HepG2” value [1] was 0.8, the “SI HCT116” value [2] was 0.5 and the “SI SW480” value [3] was 0.6. For the same compound, the “SI SW620” value [4] was 0.4.
